Assay results from patent US4120864A, “1,2,4-4H-triazole derivatives” (Rohm and Haas Company, priority 1972, dated 1978).

System: wheat leaf rust, Puccinia recondita
Experiment: Systemic activity by root-uptake, wheat leaf rust
Type: in vivo

Row | Molecule | % Systemic Wheat Leaf Rust Control (2.5 ppm in soil) [%] | % Systemic Wheat Leaf Rust Control (5 ppm in soil) [%] | % Systemic Wheat Leaf Rust Control (10 ppm in soil) [%]
1 | CCCCn1cnnc1SC(O)C(Cl)(Cl)Cl (stereo not drawn) | 98 | 100 | 100
2 | 3-(4-methoxybenzylmercapto)-4-n-butyl-1,2,4-triazole admixed with 4-n-butyl-2-(4-methoxybenzyl)-1,2,4-triazoline-3-thione | 64 | 71 | 72
